Compound potency records, mixed from different reports. Data source: NIAID ChemDB in PubChem.

Common to all: toxicity to cultured cells; measure: CC50

CCn is the concentration with n% toxicity to the cells.

structure	method	cell line	value
C[C@@H]1CC[C@H]2[C@@H](C)C(=O)O[C@@H]3OC4(C)CC[C@@H]1[C@]32OO4		HuH6	>177 µM
COC(=O)N[C@H](C(=O)N[C@@H](Cc1ccccc1)[C@@H](O)CN(Cc1ccc(-c2ccccn2)cc1)NC(=O)[C@@H](NC(=O)OC)C(C)(C)C)C(C)(C)C	MTT	TM-31	>100 µM
Nc1nc(OCCOCP(=O)(O)O)cc(OCCOCP(=O)(O)O)n1		L929	<10 µM
OC1c2ccccc2C=Cc2ccccc21		HELA-H1	150 µM
O=c1c(OC2OC(CO)C(O)C(O)C2O)c(-c2ccc(O)c(O)c2)oc2cc(O)cc(O)c12	XTT	1A2	>269 µM
CC(Cl)C1(c2ccc(F)cc2)OC(=O)c2c(Cl)c(Cl)c(Cl)c(Cl)c21	MTT	TZM-bl	188 µM
CS(=O)CCCCN=C=S	MTT	CEM-GFP	10.23 µM
Oc1ccc2oc3ccccc3c2c1		HELA-H1	100 µM
N#CC(O)c1ccccc1	MTT	MCF-7	2010 µg/mL
O=C1OC(C(Cl)c2ccccc2)c2ccccc21	MTT	TZM-bl	293 µM
CC(C)(C)OC(=O)NC1N=C(c2ccccc2)c2ccccc2NC1=O		HEP-2	4.3 µM
CC12OC[C@H]3O[C@H](C[C@@H]3N=[N+]=[N-])N1C(=O)NC(=O)[C@@]2(C)Br		CMBC	80 µM
CC(C)C(=O)NC1N=C(c2ccccc2)c2cc(Cl)ccc2NC1=O		VERO	3 µM
CC(C)C(NC(=O)OCC1c2ccccc2-c2ccccc21)C(=O)O/N=C1\c2ccccc2-c2c1c(N1CCN(c3ccccn3)CC1)nc1ccc(Br)cc21	MTT	U-937	>20 µg/mL
Nc1nc(OCCOCP(=O)(O)O)cc(=O)n1CCOCP(=O)(O)O		L1210	<10 µM
CC(C)(C)OC(=O)N1CCCC1C(=O)O/N=C1\c2ccccc2-c2c1c(-n1ccnc1)nc1ccc(Br)cc21	MTT	U-937	>20 µg/mL
O=C(O)/C=C/c1ccc(O)c(O)c1	XTT	1A2	36.77 µM
NC(=O)c1ncn([C@@H]2O[C@H](CO)[C@@H](O)[C@H]2O)n1		P3HR-1	32 µg/mL
Cc1cc(OCCOCP(=O)(O)O)nc(N)n1		L1210	<10 µM
Cc1[nH]c2ccccc2c1CC(=O)NC(Cc1ccccc1)C(=O)N(C)c1ccccc1	MTT	U-87	75 µM
CC(Cl)C1(c2ccc(F)cc2)OC(=O)c2c(Br)c(Br)c(Br)c(Br)c21	MTT	TZM-bl	133 µM
Nc1cc(=O)n(CCOCP(=O)(O)O)cn1		L1210	<10 µM
COc1ccc(C(=O)NC2N=C(c3ccccc3F)c3cc(Cl)ccc3NC2=O)cc1		HEP-2	6 µM
CC(=O)NCC(=O)O/N=C1\c2ccccc2-c2c1c(N1CCN(c3ccccn3)CC1)nc1ccc(Br)cc21	MTT	U-937	>10 µg/mL
O=C1O[C@](CCl)(c2ccccc2)c2ccccc21	MTT	TZM-bl	293 µM
CC1(OC(=O)CC(F)(F)F)c2ccccc2-c2c1c(-n1ccnc1)nc1ccc(Br)cc21	MTT	U-937	>10 µg/mL
O=C(NC1N=C(c2ccccc2)c2ccccc2NC1=O)c1cccc([N+](=O)[O-])c1		VERO	2 µM
C[C@@H](Cn1cnc2c(N)nc(N)nc21)OCP(=O)(O)O		P3HR-1	>100 µg/mL
CCOc1ccc(C(C)=O)cc1C(=O)N[C@H]1N=C(c2ccccc2)c2ccccc2NC1=O		HEP-2	1.2 µM
NC12CC3CC(CC(C3)C1)C2		G-2	>100 µg/mL
CCOC(=O)C1CCN(C(=O)C(=O)Nc2ccc3c(c2)OCO3)CC1	WST	PM1	>200 µM
Nc1ccn(C[C@H]2COP(=O)(O)CO2)c(=O)n1		P3HR-1	18 µg/mL
O=C(/C=C/c1ccc(O)cc1)O[C@H]1[C@@H]2C=CO[C@@H](OC3OC(CO)C(O)C(O)C3O)[C@@H]2[C@@]2(CO)O[C@@H]12	XTT	1A2	>246 µM
CCC(Cl)C1(c2ccc(F)cc2)OC(=O)c2c(Br)c(Br)c(Br)c(Br)c21	MTT	TZM-bl	130 µM
N[C@@H]1C2CC(c3ccccc32)[C@H]1N		G-2	>100 µg/mL
O=C1OC(CCl)(c2ccc(F)cc2)c2ccccc21	MTT	TZM-bl	290 µM
Cn1c2ccccc2c2c3c(c4c5ccccc5n(CCC#N)c4c21)CNC3=O		CD4+ T CELLS	14 µM
CCCc1cc(=O)oc2c3c(c4c(c12)OC(C)(C)C=C4)O[C@H](C)[C@@H](C)[C@@H]3O		MM	10–20 µM
C[C@]12CC[C@H](O)CC1=CC[C@@H]1[C@@H]2CC[C@]2(C)C(=O)CC[C@@H]12		PBL(PHA-M)	>100 µM
CCCc1cc(=O)oc2c3c(c4c(c12)OC(C)(C)C=C4)O[C@@H](C)[C@H](C)[C@@H]3O		CEMx174	10–20 µM
CC(=O)O[C@H]1CC[C@]2(C)C3CC=C4C5[C@](C(=O)O)(CC[C@@H](C)[C@@]5(C)O)CC[C@@]4(C)[C@]3(C)CC[C@H]2C1(C)C	XTT	1A2	85.5 µM
CC(C)CN(C[C@@H](O)[C@H](Cc1ccccc1)NC(=O)O[C@H]1CCOC1)S(=O)(=O)c1ccc(N)cc1	MTT	HKBMM	>100 µM

Repeating the final 5 entries:

| structure | method | cell line | value |
|---|---|---|---|
| CCCc1cc(=O)oc2c3c(c4c(c12)OC(C)(C)C=C4)O[C@H](C)[C@@H](C)[C@@H]3O |  | MM | 10–20 µM |
| C[C@]12CC[C@H](O)CC1=CC[C@@H]1[C@@H]2CC[C@]2(C)C(=O)CC[C@@H]12 |  | PBL(PHA-M) | >100 µM |
| CCCc1cc(=O)oc2c3c(c4c(c12)OC(C)(C)C=C4)O[C@@H](C)[C@H](C)[C@@H]3O |  | CEMx174 | 10–20 µM |
| CC(=O)O[C@H]1CC[C@]2(C)C3CC=C4C5[C@](C(=O)O)(CC[C@@H](C)[C@@]5(C)O)CC[C@@]4(C)[C@]3(C)CC[C@H]2C1(C)C | XTT | 1A2 | 85.5 µM |
| CC(C)CN(C[C@@H](O)[C@H](Cc1ccccc1)NC(=O)O[C@H]1CCOC1)S(=O)(=O)c1ccc(N)cc1 | MTT | HKBMM | >100 µM |

Two numbers with a dash give a range or band. Conditions beyond the fields shown may differ between rows. An empty or dashed field is not shown.